A mixed list of measured activities; the numbers were collected in NIAID ChemDB.

Shared fields: growth or infection tests; agent: HIV-1; read-out: EC50

ECn: concentration that inhibits the pathogen or its effect by n%. An empty or dashed field is not shown. Neighbouring rows are from separate reports.

COCc1nc(Nc2ccc(C#N)cc2)nc(Nc2c(C)cc(/C=C/C#N)cc2C)c1C(=O)N1CCCC(C(N)=O)C1 ; cells: MT4 CMV-EGFP ; strain: K103N + Y181C ; value: 0.501 µM
CCOCn1c(Cc2cc(C)cc(C)c2)c(CC)c(=O)[nH]c1=O ; cells: MT-4 ; value: 0.0064 µM
C=C1CN(S(=O)(=O)c2ccc(C)cc2)CCCN(Cc2ccccc2)CCCN(S(=O)(=O)c2ccc(C)cc2)C1 ; cells: MT-4 ; strain: AZT-resistant ; value: 2 µM
O=C1Nc2ccc(Cl)cc2[C@@](C#CC2CC2)(C(F)(F)F)[C@H]1OCc1ccccc1F ; cells: MT-2 ; strain: RF ; value: <0.14 µM
COCc1nc(Nc2ccc(C#N)cc2)nc(Nc2c(C)cc(/C=C/C#N)cc2C)c1C(=O)NCc1ccncc1 ; cells: MT4 CMV-EGFP ; strain: MDR ; value: 0.0501 µM
Nc1ccc(CO[C@H]2C(=O)Nc3ccc(Cl)cc3[C@@]2(C#CC2CC2)C(F)(F)F)cc1 ; mutations: RT-L100I ; cells: MT-2 ; value: <0.049 µM
CCC(O)c1cnc(Nc2ccc(C#N)cc2)nc1Nc1c(C)cc(/C=C/C#N)cc1C ; cells: MT-4 ; strain: MDR ; value: 2.19 µM
Nc1ccn([C@H]2CO[C@@H](CO)S2)c(=O)n1 ; cells: MT-4 ; value: >10 µg/mL
CCc1c(Sc2ccccc2)n(COCc2ccc(C)cc2)c(=S)[nH]c1=O ; cells: MT-4 ; value: 0.012 µM
CCN1C[C@H](C)N2C(=C(O)C3C(=O)N4Cc5ccc(Cl)cc5OCCCCCNC(=O)C(=N4)C32)C1=O ; cells: MT-4 ; strain: LAII(IIIB) ; value: 17.36 µM
COCc1nc(Nc2ccc(C#N)cc2)nc(Nc2c(C)cc(/C=C/C#N)cc2C)c1C(=O)NCCNC(C)=O ; cells: MT4 CMV-EGFP ; strain: L1001+K103N ; value: 0.038 µM
COP(=O)(c1cc(C)cc(CCC#N)c1)c1c(C(N)=O)[nH]c2ccc(Cl)c(F)c12 ; mutations: K103N/Y181C ; cells: MT-2 ; strain: Clinical isolate ; value: 0.002 µM
CCN1C[C@H](C)N2C(=C(O)C3C(=O)N4Cc5ccc(F)cc5C(=O)NCCCCCS(=O)(=O)N(C)C(=N4)C32)C1=O ; cells: MT-4 ; strain: LAII(IIIB) ; value: 0.6 µM
O=C1Nc2ccc(Cl)cc2[C@@](C#CC2CC2)(C(F)(F)F)[C@H]1OCc1ccncc1 ; mutations: RT-L100I ; cells: MT-2 ; value: <0.023 µM
Cc1c(Sc2ccccc2)n(COCCOC(=O)C2CCCCC2)c(=O)[nH]c1=O ; cells: MT-4 ; value: 7.5 µM
CCOCn1c2c(c(=O)[nH]c1=O)-c1ccccc1CC2 ; cells: C8166 ; strain: IIIB ; value: >5 µM
Cc1cn([C@H]2CO[C@@H](CO)S2)c(=O)[nH]c1=O ; cells: MT-4 ; value: >100 µg/mL
COc1ccc2[nH]c(C(=O)NCc3ccc(Cl)c(Oc4cc(Cl)cc(C#N)c4)c3)cc2c1 ; mutations: Y181C in RT ; cells: HeLa ; strain: HXB2 ; value: >1 µM
COCc1nc(Nc2ccc(C#N)cc2)nc(Nc2c(C)cc(/C=C/C#N)cc2C)c1C(=O)N1CCN(C)CC1 ; cells: MT4 CMV-EGFP ; strain: K103N + Y181C ; value: 1.82 µM
Cc1cn([C@H]2C=C[C@@H](CO)O2)c(=O)[nH]c1=O ; cells: MT-4 ; strain: IIIB ; value: 0.2 µM
O=C1Nc2ccc(Cl)cc2[C@@](C#CC2CC2)(C(F)(F)F)[C@H]1OCc1cccnc1 ; cells: MT-2 ; strain: RF ; value: <0.02 µM
Cc1cc2ccc3c(c2oc1=S)[C@@H](OC(=O)C12CCC(C)(C(=O)O1)C2(C)C)[C@@H](OC(=O)C12CCC(C)(C(=O)O1)C2(C)C)C(C)(C)O3 ; cells: H9 ; strain: IIIB ; value: 0.0119 µM
Cc1cc(/C=C/C#N)cc(C)c1Nc1nc(Nc2ccc(C#N)cc2)ncc1C(O)OCc1cccnc1 ; cells: MT-4 ; strain: Y181C ; value: 0.09333 µM
Cc1ccccc1CNC(=O)C1N(C(=O)[C@@H](O)[C@H](Cc2cccc(F)c2)NC(=O)c2cccc(O)c2C)CC(F)(F)C1(C)C ; value: 0.016 µM
O=c1ccn([C@H]2CO[C@@H](CO)S2)c(=O)[nH]1 ; cells: MT-4 ; value: >100 µg/mL
COCCNC(=O)c1c(COC)nc(Nc2ccc(C#N)cc2)nc1Nc1c(C)cc(/C=C(\C)C#N)cc1C ; cells: MT4 CMV-EGFP ; strain: IIIB ; value: 0.00331 µM
O=c1[nH]c(SCc2cn[nH]n2)nc(-c2cccc([N+](=O)[O-])c2)c1Cl ; strain: IIIB ; value: 1.02 µg/mL
COCc1nc(Nc2ccc(C#N)cc2)nc(Oc2c(C)cc(/C=C(\C)C#N)cc2C)c1C(=O)NCc1ccncc1 ; cells: MT4 CMV-EGFP ; strain: MDR ; value: 1.55 µM
Cc1cn([C@@H]2CO[C@@H](CO)S2)c(=O)[nH]c1=O ; cells: MT-4 ; value: >100 µg/mL
COc1cc(C[C@@H]2C(=O)N[C@@H](C(C)C)C(=O)O[C@H](c3ccccc3)[C@H](C)/C=C/C=C(\C)C(OC)CCC/C=C(\C)C(=O)C(C)C(=O)N2C)ccc1O ; cells: TZM-bl ; strain: LAI ; value: 0.015 µM
CC[n+]1c(-c2ccccc2)c2cc(N)ccc2c2ccc(NC(N)=O)cc21 ; cells: HeLa ; value: 15 µM
CCN1C[C@H](C)N2C(=C(O)C3C(=O)N4Cc5ccc(F)cc5C(=O)NCCCCCCN=C(N4)C32)C1=O ; cells: MT-4 ; strain: LAII(IIIB) ; value: 994 µM
COC(=O)Cc1cccc2c1nc(-c1c(F)cccc1F)n2Cc1c(F)cccc1F ; value: 0.06 µM
CCN1C[C@H](C)N2C(=C(O)C3C(=O)N4Cc5cc(Cl)c(F)cc5OCCCCS(=O)(=O)N(C)C(=N4)C32)C1=O ; cells: MT-4 ; strain: LAII(IIIB) ; value: 0.6 µM
O=C1CC(C#CC2CC2)(C(F)(F)F)c2cc(Cl)ccc2N1 ; mutations: RT-K103N ; cells: MT-2 ; value: <1.77 µM
Cc1cc(/C=C/C#N)cc(C)c1Nc1nc(Nc2ccc(C#N)cc2)ncc1C(O)OCCO ; cells: MT-4 ; strain: K103N + Y181C ; value: 0.01995 µM
Cc1c(O)cccc1C(=O)N[C@@H](Cc1cccc(F)c1)[C@H](O)C(=O)N1CC(F)(F)C(C)(C)[C@H]1C(=O)NCC(F)(F)F ; value: 0.01 µM
C[C@H]1CN(C2CC2)C(=O)C2=C(O)C3C(=O)N4Cc5ccc(F)cc5OCCCCCN(C)C(=O)C(=N4)C3N21 ; cells: MT-4 ; strain: LAII(IIIB) ; value: 3.05 µM
CCOCn1c(Sc2ccccc2)c(CC)c(=O)[nH]c1=O ; cells: MT-4 ; value: 0.016 µM
Cc1c(-c2ccccc2)c(=S)oc2c3c(ccc12)OC(C)(C)[C@H](OC(=O)C12CCC(C)(C(=O)O1)C2(C)C)[C@@H]3OC(=O)C12CCC(C)(C(=O)O1)C2(C)C ; cells: H9 ; strain: IIIB ; value: 4.95 µM
CCN1C2=NN(Cc3ccc(F)cc3OCCCCS1(=O)=O)C(=O)C1C(O)=C3C(=O)N(C(C)C)C[C@H](C)N3C21 ; cells: MT-4 ; strain: LAII(IIIB) ; value: 0.7 µM
CNC(O)c1cnc(Nc2ccc(C#N)cc2)nc1Nc1c(C)cc(/C=C/C#N)cc1C ; cells: MT-4 ; strain: Y181C ; value: 0.01995 µM
Nc1ccn([C@@H]2O[C@H](CO)C=C2F)c(=O)n1 ; cells: PBMC ; value: 0.37 µM
COc1cc2c(c3oc(=S)ccc13)[C@@H](OC(=O)C13CCC(C)(C(=O)O1)C3(C)C)[C@@H](OC(=O)C13CCC(C)(C(=O)O1)C3(C)C)C(C)(C)O2 ; cells: H9 ; strain: IIIB ; value: 1.28 µM
COCCOC(O)c1cnc(Nc2ccc(C#N)cc2)nc1Nc1c(C)cc(/C=C/C#N)cc1C ; cells: MT-4 ; strain: L100I + K103N ; value: 0.02399 µM
Nc1ccn([C@H]2C=C[C@@H](CO)O2)c(=O)n1 ; cells: PBMC ; value: 0.005 µM
Cc1cc2c(c3oc(=S)cc(C)c13)[C@@H](OC(=O)C13CCC(C)(C(=O)O1)C3(C)C)[C@@H](OC(=O)C13CCC(C)(C(=O)O1)C3(C)C)C(C)(C)O2 ; cells: H9 ; strain: IIIB ; value: 0.262 µM
O=c1[nH]c(SCc2cn[nH]n2)nc(-c2ccc(I)cc2)c1Cl ; strain: ADA5 ; value: 0.29 µg/mL
Nc1ccn([C@@H]2C=C(F)[C@H](CO)O2)c(=O)n1 ; cells: PBMC ; value: 0.03 µM

The last 4 rows once more:

SMILES	mutations	cells	strain	value
Nc1ccn([C@H]2C=C[C@@H](CO)O2)c(=O)n1	-	PBMC	-	0.005 µM
Cc1cc2c(c3oc(=S)cc(C)c13)[C@@H](OC(=O)C13CCC(C)(C(=O)O1)C3(C)C)[C@@H](OC(=O)C13CCC(C)(C(=O)O1)C3(C)C)C(C)(C)O2	-	H9	IIIB	0.262 µM
O=c1[nH]c(SCc2cn[nH]n2)nc(-c2ccc(I)cc2)c1Cl	-	-	ADA5	0.29 µg/mL
Nc1ccn([C@@H]2C=C(F)[C@H](CO)O2)c(=O)n1	-	PBMC	-	0.03 µM